Assays:
Assay type in all cases: cell-based
Conditions in all cases: Conc. 10 ppm, overnight in moist chamber
Alternaria solani = experiment: Fungal spore control (spore slide-germination) against Alternaria solani
Monolinia fructicola = experiment: Fungal spore control (spore slide-germination) against Monolinia fructicola
Botrytis cinerea = experiment: Fungal spore control (spore slide-germination) against Botrytis cinerea

Structure (SMILES) | % Control (percent inhibition of germination of fungus spores) (Alternaria solani) [%] | % Control (percent inhibition of germination of fungus spores) (Monolinia fructicola) [%] | % Control (percent inhibition of germination of fungus spores) (Botrytis cinerea) [%]
O=c1on(SC(Cl)(Cl)C(Cl)Cl)c(=O)n1C1CCCCC1 | 99 | 100 | 100
CC(C)n1c(=O)on(SC(Cl)(Cl)C(Cl)Cl)c1=O | 99 | 10 | 100
